Experimental findings from patent publication US9512175B2, “Macrocyclic inhibitors of flaviviridae viruses” (Gilead Sciences, Inc., priority 2012, dated 2016) are described below.

In this assay the test system is HCV replicon (Replicon 1a). Kind of assay: anti-HCV activity in Huh-7 cell line harboring a HCV replicon (Replicon 1a). Type of assay: cell-based. Particulars: human hepatoma Huh-7 HCV replicon cells, 3 days, luciferase readout. Background: Replicon systems follow genome replication, usually without infectious particles.
As to `CC(C)[C@@H]1NC(=O)C(C)(C(C)(C)O)/C=C/c2ccc3ccc(nc3c2)[C@@H](C)OC(=O)[C@@H]2CCCN(N2)C(=O)[C@H](C)NC1=O` (single isomer, unassigned), the “Replicon 1a % inhibition at 1 μM” value is listed as 100%.
For the molecule `COCC1NC(=O)[C@H](C(C)C)NC(=O)C(C)(C)/C=C/c2ccc3ccc(nc3c2)[C@@H](C)OC(=O)[C@@H]2CCCN(N2)C1=O` (single isomer, unassigned), the “Replicon 1a % inhibition at 1 μM” value is 35%.
Consider `CC(C)[C@@H]1NC(=O)C2(/C=C/c3ccc4ccc(nc4c3)[C@@H](C)OC(=O)[C@@H]3CCCN(N3)C(=O)[C@H](C)NC1=O)CCOC(C)(C)C2` (stereo partly drawn) [Compound 123], for which the “Replicon 1a % inhibition at 1 μM” value worked out at 100%.
